According to PubChem BioAssay AID1918969 (ICCB-Longwood Screening Facility, Harvard Medical School, 2023):
Only a part is listed here, and it is no random draw. Calls of active or inactive are those of the source. No stated cut-off is given here; in the data, active means inhibition above about 27% (passing the limit was not always enough); inactive means the rest.

The compounds below were run on HCMV UL50-UL53 nuclear egress complex (human cytomegalovirus) (assay: HCMV nuclear egress complex disruptors – biochemical, HTRF (AID 1918969)). Conditions: HTRF UL50-UL53 interaction, normalized percent inhibition; hits give high values; concentration not given here.
For CCOC(=O)N1CCC(Nc2cccc(C)c2)CC1, the inhibition was inactive: -15.5%.
In the case of O=C(NCC1(N2CCOCC2)CCCCC1)c1ccc2nc[nH]c2c1, the inhibition is reported as inactive: -14.3%.
In the case of O=C1CCN(Cc2ccccc2)CC1, the inhibition is reported as inactive: 6.2%.
With O=C(NCC1(N2CCOCC2)CCCCC1)c1ccc(Cl)cc1 the inhibition was inactive: 11.9%.
For COc1ccccc1C(=O)NCC1(N2CCOCC2)CCCCC1, the inhibition was inactive: -15.6%.
For Cc1cc(C)c2c(C)c(C(=O)NCC3(N4CCOCC4)CCCCC3)oc2c1, the inhibition was inactive: 1.3%.
In the case of CCOC(=O)N1CCC(Nc2ccc(F)cc2)CC1, the inhibition is reported as inactive: -8.9%.
With Cc1c(C(=O)NCC2(N3CCOCC3)CCCCC2)oc2cc(Br)ccc12 the inhibition was inactive: -1.5%.
For CC1CN(CCc2ccccc2)CCC1=O (centres undefined), the inhibition was inactive: -15.4%.
With N#CC1(Nc2ccccc2)CCN(Cc2ccccc2)CC1 the inhibition was inactive: -10.9%.
With CCCN1CCC(Nc2ccc(OC)c(OC)c2)CC1 the inhibition was inactive: -21.4%.
Cc1ccccc1NC1CC(C)(C)NC(C)(C)C1 was tested, and the inhibition was inactive: -4.4%.
COc1ccc(C(=O)NCC2(N3CCCCC3)CCCCC2)cc1 was tested, and the inhibition was inactive: -15.2%.
In the case of Cc1c(C(=O)NCC2(N3CCOCC3)CCCCC2)oc2ccc(Cl)cc12, the inhibition is reported as inactive: 3.3%.
With Cc1c(C(=O)NCC2(N3CCOCC3)CCCCC2)oc2ccc(Br)cc12 the inhibition was inactive: 12.1%.
In the case of Cc1c(C(=O)NCC2(N(C)C)CCCCC2)oc2ccc(Br)cc12, the inhibition is reported as inactive: -9.1%.
For NC(=O)C1(Nc2ccc(F)cc2)CCNCC1, the inhibition was inactive: -26%.
With c1ccc(CN2CCC(Nc3ccc4c(c3)OCO4)CC2)cc1 the inhibition was inactive: -19.5%.
In the case of O=C(NCC1(N2CCOCC2)CCCCC1)c1ccccc1Br, the inhibition is reported as inactive: -3.1%.
In the case of Cc1ccc(C(=O)NCC2(N(C)C)CCCCC2)o1, the inhibition is reported as inactive: -27.3%.
CCCCOc1ccccc1C(=O)NCC1(N2CCOCC2)CCCCC1 was tested, and the inhibition was inactive: -6.8%.
Cc1ccc2c(C)c(C(=O)NCC3(N(C)C)CCCCC3)oc2c1C was tested, and the inhibition was inactive: -4.8%.
CCCOc1cccc(C(=O)NCC2(N3CCOCC3)CCCCC2)c1 was tested, and the inhibition was inactive: 0.2%.
In the case of Cn1nc(C(=O)NCC2(N3CCCCC3)CCCCC2)c2ccccc2c1=O, the inhibition is reported as inactive: -24.4%.
In the case of CCOc1ccc(C(=O)NCC2(N3CCOCC3)CCCCC2)cc1, the inhibition is reported as inactive: -10.4%.
In the case of O=C(NCC1(N2CCOCC2)CCCCC1)c1ccccc1, the inhibition is reported as inactive: -17.1%.
CCCN1CCC(Nc2cc(OC)cc(OC)c2)CC1 was tested, and the inhibition was inactive: -3.2%.
For Cc1c(C(=O)NCC2(N3CCOCC3)CCCCC2)oc2c(Cl)cccc12, the inhibition was inactive: -32.3%.
For O=C(NCC1(N2CCOCC2)CCCCC1)c1ccccc1[N+](=O)[O-], the inhibition was inactive: -25.1%.
In the case of O=C(NCC1(N2CCOCC2)CCCCC1)c1ccc([N+](=O)[O-])cc1, the inhibition is reported as inactive: -89.9%.
With Cc1c(C(=O)NCC2(N3CCOCC3)CCCCC2)oc2ccc(F)cc12 the inhibition was inactive: 8.3%.
In the case of O=C(NCC1(N2CCOCC2)CCCCC1)c1cc2ccccc2cc1O, the inhibition is reported as inactive: -33.5%.
With Cc1c(C(=O)NCC2(N(C)C)CCCCC2)oc2cc(Br)ccc12 the inhibition was inactive: -13.3%.
For O=C1CCN(CCc2ccccc2)CC1, the inhibition was inactive: -29.4%.
With CN1CCC(Nc2ccc(F)cc2)CC1 the inhibition was inactive: -7.6%.
With COc1cc(C(=O)NCC2(N3CCOCC3)CCCCC2)cc(OC)c1OC the inhibition was inactive: -6.9%.
For O=C(NCC1(N2CCCCC2)CCCCC1)c1n[nH]c2ccccc12, the inhibition was inactive: -17.1%.
In the case of CCOc1ncccc1C(=O)NCC1(N2CCCCC2)CCCCC1, the inhibition is reported as inactive: -2%.
In the case of CC(C)(C)OC(=O)N1CCC(Nc2ccccc2)CC1, the inhibition is reported as inactive: -10.3%.
CCOc1ncccc1C(=O)NCC1(N(C)C)CCCCC1 was tested, and the inhibition was inactive: -8.5%.
Cc1c(C(=O)NCC2(N(C)C)CCCCC2)oc2ccc(Cl)cc12 was tested, and the inhibition was inactive: -15%.
In the case of CCN1CCC(Nc2ccc(F)cc2)CC1, the inhibition is reported as inactive: 2%.
For CC1CN(C)C(C)CC1Nc1ccccc1 (centres undefined), the inhibition was inactive: -24.2%.
Cc1ccccc1C(=O)NCC1(N(C)C)CCCCC1 was tested, and the inhibition was inactive: -34.8%.
In the case of CC1CN(CCc2ccccc2)C(C)CC1=O (centres undefined), the inhibition is reported as inactive: 2.7%.
For CN(C)c1ccc(C(=O)NCC2(N3CCCCC3)CCCCC2)cc1, the inhibition was inactive: -0.5%.
In the case of CC(C)(C)c1ccc(C(=O)NCC2(N3CCOCC3)CCCCC2)cc1, the inhibition is reported as inactive: -21.2%.
For CN(C)C1(CNC(=O)c2ccc(C(C)(C)C)cc2)CCCCC1, the inhibition was inactive: -27.4%.
For CC1CN(Cc2ccccc2)CCC1=O (centres undefined), the inhibition was inactive: 8.1%.
